Measured values published in patent publication US10172362B2, “Biofilms, components and methods of use to reduce biofouling and contamination” (THE PENN STATE RESEARCH FOUNDATION, priority 2015, dated 2019).

Test system: P. aeruginosa biofilm
Test: P. aeruginosa biofilm formation in 96-well plates with SNP as NO donor
Settings: 5 μM SNP, 24 h, 37° C., M9G, 96 well plate
Description: The average of PAO1 in FIG. 12 A-O measurements was biomass of 18.01 μm^3/μm^2, biofilm thickness of 42.03 μm and roughness co-efficient of 0.18. Average of E. coli NO− was biomass of 0.80 μm^3/μm^2, biofilm thickness of 2.25 μm and roughness co-efficient of 1.95. […] Biofilms were formed for 24 hr on NF90 membranes with M9G medium, Cm (300 μg/mL), Cb (250 μg/mL), 1.6% arabinose, and 15 mM L-arginine. The RO system was pressurized at 50 psi and stirred at 400 rpm; 0, 5, 10, and 15 mM NaCl feed concentrations were used to test the permeate flux through membranes with the biofilms. There is no significant difference for flux values between the E. coli NO+ and E. coli NO− biofilm covered membrane−; the flux is also similar to that of the E. coli LasI/LasR (TG1/pBdcAE50Q-lasI-lasR) biofilm-covered membrane shown in FIG. 7D. […]
Biofilm Formation Assay Using Crystal Violet. […] The total biofilm formation samples were measured at 540 nm, whereas cell growth was measured at 620 nm. […]

## sodium nitroprusside
  reduction of normalized P. aeruginosa biofilm: 80%

This is a selection: effects in other tests are not listed, and their absence says nothing.
